Compound potency records, mixed from different reports. Data source: NIAID ChemDB in PubChem.

Shared fields: growth or infection tests; organism: Candida albicans

MIC50, MIC90 and the like: level of inhibition, or share of isolates inhibited.

compound | strain | changes | method | measure | dose | value
O=C/C=C/c1ccccc1 | Clinical isolates | - | - | MIC90 | - | 125–450 µg/mL
CN(C/C=C/C#CC(C)(C)C)Cc1cccc2ccccc12 | CI_1 | - | - | MIC50 | - | 4 µg/mL
Cc1ccc(C(C)C)c(O)c1 | ATCC 10231 | - | broth dilution / turbidity | EC50 | - | 0.51 µM
Oc1ccc2cc1Oc1ccc(cc1)CCc1ccc(O)c(c1)Oc1ccc(cc1)CC2 | BWP17-DPP3-GFP | - | broth dilution | MIC80 | - | >64 µg/mL
CC(C)=CCC/C(C)=C/CO | ATCC 90028 | - | broth dilution | MIC50 | - | 4000 µg/mL
CCN1C2=NC[C@H](C(C)(C)C)N2C[C@@H]1Cc1ccccc1 | ATCC 10231 | - | - | EC50 | - | >250 µg/mL
Oc1ccc2cc1Oc1ccc(cc1)CCc1ccc(O)c(c1)Oc1cccc(c1)CC2 | BWP17-DPP3-GFP | - | broth dilution | MIC80 | - | >64 µg/mL
Fc1ccc(-c2nn(-c3ccccc3)cc2C2=NNC(c3ccc(F)cc3)C2)cc1 | MTCC 227 | - | - | MIC99 | - | 20 µM
COc1cccc(CN=C=S)c1 | - | - | broth dilution | MFC | - | 150 µg/mL
C1CCC(C[C@@H]2CN3C(=NC[C@H]3C3CCCCC3)N2CCC23CC4CC(CC(C4)C2)C3)CC1 | ATCC 10231 | - | - | EC50 | - | 23.8 µg/mL
COc1ccc(C=O)c(OC)c1OC | ATCC 90028 | - | broth dilution | MIC99.9 | - | 2000 µg/mL
CC(=O)N1CCN(c2ccc(OC[C@H]3CO[C@](Cn4ccnc4)(c4ccc(Cl)cc4Cl)O3)cc2)CC1 | 75 strains | - | agar diffusion / agar | inhibition | 15 µg/mL | 48%
O=C1C=C(NCCN2CCOCC2)C(=O)c2ccccc21 | MTCC 3017 | - | broth dilution | MIC100 | - | 62.5 µg/mL
C[C@H](CCC(=O)NCCNCCNC(=O)CC[C@@H](C)[C@H]1CCC2C3CCC4C[C@H](O)CC[C@]4(C)C3C[C@H](C)[C@@]21O)[C@H]1CCC2C3CCC4C[C@H](O)CC[C@]4(C)C3C[C@H](C)[C@@]21O | Isolate 5 | - | - | MIC | - | 0.018 µM
CC(C)[C@H](NC(=O)[C@H](Cc1ccccc1)NC(=O)[C@H](CCCCN)NC(=O)CN)C(N)=O | - | - | colony count | inhibition | 100 µM | 5%
O=C(O)c1ccccc1 | ATCC 10231 | - | - | EC50 | - | 0.73 µM
CC(=O)OC[C@]12CC[C@]3(C(C)C)C1=C1C(CC4[C@@]5(C)CC[C@H](OC(C)=O)C(C)(C)C5CC[C@@]4(C)[C@]1(C)CC2)n1c(=O)n(-c2ccc4c(c2)OCO4)c(=O)n13 | ATCC 90028 | - | broth dilution | MIC90 | - | 4.4 µg/mL
O=C1C=C(Nc2cccc(Br)c2)C(=O)c2ccccc21 | MTCC 3017 | - | broth dilution | MIC100 | - | 62.5 µg/mL
C[C@@H]1C=C2C3CCC4[C@@]5(C)CC[C@@H](O)C(C)(C)C5CC[C@@]4(C)[C@]3(C)CC[C@@]2(C(=O)O)CC1 | ATCC 10231 | - | broth dilution | MLC | - | >200 µg/mL
CCC(C)CC(C)CCCCCCCCC(=O)N[C@H]1C[C@@H](O)[C@@H](O)NC(=O)[C@@H]2[C@@H](O)CCN2C(=O)[C@H]([C@H](O)CC(N)=O)NC(=O)[C@H]([C@H](O)[C@@H](O)c2ccc(O)cc2)NC(=O)[C@@H]2C[C@@H](O)CN2C(=O)[C@H]([C@@H](C)O)NC1=O | - | - | - | MIC | - | 0.02 µg/mL
C=C(C)C1CC=C(C)CC1 | ATCC 90028 | - | broth dilution | MIC99.9 | - | >8000 µg/mL
C=C(C)[C@@H]1CC[C@]2(COC(=O)c3ccccc3NC(C)=O)CC[C@]3(C)C(CCC4[C@@]5(C)CC[C@H](O)C(C)(C)C5CC[C@]43C)C12 | ATCC 90028 | - | broth dilution | MIC90 | - | 10 µg/mL
C=C(Cl)/C=C/[C@H](O)CC(=C)C[C@H]1OC2[C@@H](O)[C@]3(O)C[C@@H](O)[C@H](C)[C@H](CCC/C=C\[C@@H]4C[C@@H](O)C[C@]5(C[C@H](OC)CC(CC(=O)[C@@H](C)[C@H](OC(C)=O)[C@@H](C)C(=C)C[C@@H]6C[C@@](C)(O)C[C@]7(C[C@H](OC(C)=O)CC(CC(=O)O[C@@H]([C@@H]1O)[C@H]2C)O7)O6)O5)O4)O3 | ATCC64124 | - | - | MFC | - | 6.25 µg/mL
Cc1c(N)nc([C@H](CC(N)=O)NC[C@H](N)C(N)=O)nc1C(=O)N[C@H](C(=O)N[C@H](C)[C@@H](O)[C@H](C)C(=O)N[C@H](C(=O)NCCc1nc(-c2nc(C(=O)NCCC[S+](C)C)cs2)cs1)[C@@H](C)O)C(O[C@@H]1O[C@@H](CO)[C@@H](O)[C@H](O)[C@@H]1O[C@H]1O[C@H](CO)[C@@H](O)[C@H](OC(N)=O)[C@@H]1O)c1cnc[nH]1 | Isolate 94-101 | - | - | MLC | - | 12.5 µg/mL
Clc1ccc(C(Cn2ccnc2)OCc2c(Cl)cccc2Cl)c(Cl)c1 | 106 isolates | - | - | MIC90 | - | 4 µg/mL
COc1ccc(CCc2cc(OC)c(OC)c(OC)c2)cc1OC | BWP17-DPP3-GFP | - | broth dilution | MIC80 | - | >64 µg/mL
O[C@](Cn1cncn1)(Cn1cnc(/C=C/c2ccc(OCC(F)(F)C(F)F)cc2)n1)c1ccc(F)cc1F | 25 strains | - | - | Mean MIC80 | - | 0.0037 µg/mL
CCN1C[C@]2(COC)CC[C@H](OC)[C@]34C1[C@@](O)([C@@H](OC)[C@H]23)[C@@]1(O)C[C@H](OC)C2C[C@@H]4[C@@H]1[C@H]2OC(C)=O | - | - | - | MBC | - | 0.125 µg/mL
O=C1C=C(NCCc2ccc(O)cc2)C(=O)c2ccccc21 | MTCC 3017 | - | broth dilution | MIC100 | - | 62.5 µg/mL
CCCCCCCCCCCCCCCCCCCO | ATCC 10231 | - | broth dilution | MLC | - | >200 µg/mL
CCN1C2=NCC(C)(C)N2C[C@@H]1Cc1ccccc1 | ATCC 10231 | - | - | EC50 | - | >250 µg/mL
Clc1ccc(COC(Cn2ccnc2)c2ccc(Cl)cc2Cl)c(Cl)c1 | LM 42V | - | broth dilution | MFC100 | - | 32 µg/mL
CC(C)=CCCC(C)CCO | ATCC 90028 | - | broth dilution | MIC99.9 | - | 8000 µg/mL
CC(C)(C)[C@](O)(COc1ccc(Cl)cc1)Cn1cncn1 | - | - | - | MLC90 | - | >0.08 µg/mL
O=C1C=C(N2CCOCC2)C(=O)c2ccccc21 | MTCC 3017 | - | broth dilution | MIC100 | - | 62.5 µg/mL
COc1ccc2c(Cc3ccc(Br)cc3)c3[n+](cc2c1OC)CCc1cc2c(cc1-3)OCO2.[Br-] | Clinical isolate | Fluconazole-resistant | broth dilution | MIC80 | - | 64 µg/mL
COc1ccc(CN=C=S)cc1 | - | - | broth dilution | MFC | - | 2 µg/mL
O=C/C=C/c1ccccc1 | ATCC 90028 | - | broth dilution | MIC99.9 | - | 250 µg/mL
C[C@H]1[C@H](O)[C@@H](C)/C=C/C=C/C=C/C=C/C=C/C=C/C=C/[C@H](O[C@@H]2O[C@H](C)[C@@H](O)[C@H](N)[C@@H]2O)C[C@@H]2O[C@](O)(C[C@@H](O)C[C@@H](O)CC[C@H](O)[C@@H](O)C[C@@H](O)CC(=O)O[C@H]1C)C[C@H](O)[C@H]2C(=O)O | 4054 strains (fluconazole-susceptible) | - | - | MIC90 | - | 1 µg/mL
CC(C)(C)C1CCC(CN2C3=NC[C@@H](C4CCCCC4)N3C[C@H]2C2CCCCC2)CC1 | ATCC 10231 | - | - | EC50 | - | 34.2 µg/mL
Clc1ccc(CCC(Cn2ccnc2)Sc2c(Cl)cccc2Cl)cc1 | 106 isolates | - | - | MIC90 | - | 8 µg/mL
C=C(c1ccccc1OCc1cccc(Cl)c1)n1ccnc1 | - | - | - | Geometric mean MIC | - | 33.1 µg/mL
C[C@@H]1[C@H](O)[C@@H](C)/C=C/C=C/CC/C=C/C=C/C=C/C=C/C(O[C@H]2O[C@H](C)[C@@H](O)[C@H](N)[C@@H]2O)CC2O[C@](O)(CC(O)C(O)CCC(O)CC(O)CC(O)CC(=O)O[C@H]1C)CC(O)C2C(=O)O | ATCC 40227 | - | broth dilution | MIC100 | - | >1024 µg/mL
Cc1ccccc1C(=O)NCCc1ccc2c(c1)OCO2 | Clinical isolate | Fluconazole-resistant | broth dilution | MIC80 | - | 32 µg/mL
CCCCCSc1nc2ccc(N)cc2s1 | IEM 49/64 | - | - | inhibition | 80 µM | ≥70%
Clc1ccc(C(Cn2ccnc2)OCc2ccsc2Cl)c(Cl)c1 | 75 strains | - | agar diffusion / agar | inhibition | 10 µg/mL | 65%
Nc1[nH]c(=O)ncc1F | 106 isolates | - | - | MIC90 | - | 32 µg/mL
CC(C)[C@H](NC(=O)[C@H](Cc1ccccc1)NC(=O)[C@H](CCCCN)NC(=O)CNC(=O)[C@H](Cc1c[nH]c2ccccc12)NC(=O)[C@@H](N)CCCN=C(N)N)C(N)=O | - | - | colony count | inhibition | 100 µM | 19.3%
CCN1C2=NC[C@H](Cc3ccccc3)N2C[C@H]1C1CCCCC1 | ATCC 10231 | - | - | EC50 | - | >64 µg/mL
C1CCNCC1 | ATCC 90028 | - | broth dilution | MIC50 | - | 250 µg/mL
COc1ccc(C=O)cc1 | 1131 | - | agar diffusion / agar | MIC90 | - | 300–500 µM
COC(=O)/C=C1/NN=C(c2ccccn2)N(c2ccccn2)C1=O | Clinical isolates (20 strains) | - | agar diffusion | MIC50 | - | 512 µg/mL
CC(C)C[C@@H]1CN2C(=NC[C@@H]2C2CCCCC2)N1CCC12CC3CC(CC(C3)C1)C2 | ATCC 10231 | - | - | EC50 | - | 26.6 µg/mL
CCC(C)CC(C)CCCCCCCCC(=O)NC1C[C@@H](O)[C@@H](O)NC(=O)[C@@H]2[C@@H](O)CCN2C(=O)[C@H]([C@@H](O)CC(N)=O)NC(=O)[C@H]([C@H](O)[C@@H](O)c2ccc(OP(=O)([O-])O)cc2)NC(=O)[C@@H]2C[C@@H](O)CN2C(=O)[C@H]([C@H](C)O)NC1=O.[Na+] | MY1055 | - | - | MFC | - | 2 µg/mL
Clc1ccc(COC(Cn2ccnc2)c2ccc(Cl)cc2Cl)c(Cl)c1 | 75 strains | - | agar diffusion / agar | inhibition | 10 µg/mL | 51%
CC1=C(Nc2ccccc2)C(=O)c2ccccc2C1=O | MTCC 3017 | - | broth dilution | MIC100 | - | 15.6 µg/mL
O=Cc1ccco1 | ATCC 90028 | - | broth dilution | MIC50 | - | 500 µg/mL
O=C(Cc1ccccc1F)NCCc1ccc2c(c1)OCO2 | Clinical isolate | Fluconazole-resistant | broth dilution | MIC80 | - | >64 µg/mL
C[C@@H](c1nc(-c2ccc(C#N)cc2)cs1)[C@](O)(Cn1cncn1)c1ccc(F)cc1F | 85 strains (fluconazole-resistant) | - | - | MIC90 | - | >8 µg/mL
COc1cc(C[C@H](C)[C@H](C)Cc2ccc(O)c(O)c2)ccc1O | CCC 129-2000 | - | broth dilution | MIC80 | - | 31.25 µg/mL
CC1(C)C=C2C3CCC4[C@@]5(C)CCC(O)C(C)(C)C5CC[C@@]4(C)[C@]3(C)CC[C@@]2(C(=O)O)CC1 | ATCC 10231 | - | broth dilution | MLC | - | >200 µg/mL
C[C@@H]1[C@H](O)[C@@H](C)/C=C/C=C/CC/C=C/C=C/C=C/C=C/C(O[C@H]2O[C@H](C)[C@@H](O)[C@H](N)[C@@H]2O)CC2O[C@](O)(CC(O)C(O)CCC(O)CC(O)CC(O)CC(=O)O[C@H]1C)CC(O)C2C(=O)O | ATCC 10231 | - | broth dilution | MFC99.9 | - | 6.25 µg/mL
CN(C/C=C/C#CC(C)(C)C)Cc1cccc2ccccc12 | 179 isolates | - | - | Mean MIC | - | 1.2 µg/mL
C=C1C2CCC(C2)C1(C)C | ATCC 90028 | - | broth dilution | MIC50 | - | 4000 µg/mL
Oc1ccc2cc1Oc1ccc(cc1)CCc1cccc(c1)Oc1c(O)cccc1CC2 | BWP17-DPP3-GFP | - | broth dilution | MIC80 | - | >64 µg/mL
COc1ccccc1CN=C=S | - | - | broth dilution | MFC | - | 1250 µg/mL
Clc1ccc(COC(Cn2ccnc2)c2ccc(Cl)cc2Cl)c(Cl)c1 | 11 isolates | - | - | Geometric mean MIC | - | 15.5 µg/mL
CC(C)(C)c1ccc(C[N+]2(C)CCc3cc4c(cc3C2)OCO4)cc1.[Br-] | Clinical isolate | Fluconazole-resistant | broth dilution | MIC80 | - | >64 µg/mL
O=Cc1cc(O)ccc1O | ATCC 90028 | - | broth dilution / turbidity | EC50 | - | 1.13 µM
CC1=[N+](Cc2ccc(C(C)(C)C)cc2)CCc2cc3c(cc21)OCO3.[Br-] | Clinical isolate | Fluconazole-resistant | broth dilution | MIC80 | - | >64 µg/mL
Oc1ccc2c(c1)CCc1ccc(cc1)Oc1cc(ccc1O)CCc1cc(O)ccc1-2 | BWP17-DPP3-GFP | - | broth dilution | MIC80 | - | 64 µg/mL

The last 4 rows once more:

| compound | strain | changes | method | measure | dose | value |
|---|---|---|---|---|---|---|
| CC(C)(C)c1ccc(C[N+]2(C)CCc3cc4c(cc3C2)OCO4)cc1.[Br-] | Clinical isolate | Fluconazole-resistant | broth dilution | MIC80 | - | >64 µg/mL |
| O=Cc1cc(O)ccc1O | ATCC 90028 | - | broth dilution / turbidity | EC50 | - | 1.13 µM |
| CC1=[N+](Cc2ccc(C(C)(C)C)cc2)CCc2cc3c(cc21)OCO3.[Br-] | Clinical isolate | Fluconazole-resistant | broth dilution | MIC80 | - | >64 µg/mL |
| Oc1ccc2c(c1)CCc1ccc(cc1)Oc1cc(ccc1O)CCc1cc(O)ccc1-2 | BWP17-DPP3-GFP | - | broth dilution | MIC80 | - | 64 µg/mL |

Percent inhibition refers to the dose given; in toxicity tests it is the harm to the cells. a–b is a range or a potency band. ECn is the concentration giving n% inhibition of infection, replication or growth. Lines come from different laboratories, so protocols vary. An empty or dashed field is not shown.